The values below come from publication PMC5104768, “Effects of lactoferrin derived peptides on simulants of biological warfare agents” (2016).

Structures are written as SMILES. ≈ marks a conversion by molar mass, not a printed value.

The test system of one test is Bacillus cereus (BM629). Put plainly: Minimum bactericidal concentration (MBC).
The test system of test [1] is Yersinia enterocolitica (DSM 4780). Put plainly: Minimum bactericidal concentration (MBC).
The subject of test [2] is Salmonella typhimurium SF1399 (BM352). Put plainly: Minimum bactericidal concentration (MBC).
The test system of test [3] is Salmonella typhimurium DT104a (BM638). Put plainly: Minimum bactericidal concentration (MBC).
For test [4], the system named is isolates of Burkholderia pseudomallei including B. pseudomallei 979b. To be noted: ref Puknun et al. [2016], cited from earlier work.
Test [5] concerns Y. enterocolitica. The test is described as follows: DiSC3(5) membrane depolarization assay. To be noted: 0-12.5 μM, 30 min, LFchimera statement at 3.1 μM, Fig. 2c.
The test system of test [6] is B. cereus. The test is described as follows: DiSC3(5) membrane depolarization assay. Conditions: 0-12.5 μM, 30 min, LFchimera statement at 3.1 μM, Fig. 2b.
The subject of test [7] is Y. pseudotuberculosis. Put plainly: DiSC3(5) membrane depolarization assay. To be noted: 30 min, LFchimera at 12.5 μM, Fig. 2d.
In test [8] the test system is S. typhimurium DT104a. The test is described as follows: DiSC3(5) membrane depolarization assay. To be noted: 30 min, LFchimera at 12.5 μM, Fig. 2f.
Test [9] deals with S. typhimurium SF1399. The test is described as follows: DiSC3(5) membrane depolarization assay. To be noted: S. typhimurium SF1399, 30 min; LFchimera at 12.5 μM; Fig. 2e.
The test system of test [10] is Y. enterocolitica. Put plainly: Propidium iodide (PI) membrane permeabilization assay. Conditions: Y. enterocolitica ~10^8 CFU/ml in PPB, 10 μM PI, 1 h, 0.1-12.5 μM; Fig. 1c.
Test [11] deals with B. cereus. The description is as above. Conditions: B. cereus ~10^8 CFU/ml in PPB, 10 μM PI, 1 h, 0.1-12.5 μM; Fig. 1b.
Test [12] deals with Y. pseudotuberculosis. The description is as above. To be noted: Y. pseudotuberculosis ~10^8 CFU/ml in PPB, 10 μM PI, 1 h, 0.1-12.5 μM; Fig. 1d.
The test system of test [13] is S. typhimurium DT104a. The description is as above. Conditions: S. typhimurium DT104a ~10^8 CFU/ml in PPB, 10 μM PI, 1 h, 0.1-12.5 μM; Fig. 1f.
The test system of test [14] is S. typhimurium SF1399. The test is described as above. Conditions: S. typhimurium SF1399 ~10^8 CFU/ml in PPB, 10 μM PI, 1 h, 0.1-12.5 μM; Fig. 1e.

On to `CC[C@H](C)[C@H](NC(=O)[C@H](CC(C)C)NC(=O)[C@@H](N)CC(=O)O)C(=O)N[C@@H](Cc1c[nH]c2ccccc12)C(=O)N[C@@H](CCCCN)C(=O)N[C@@H](CC(C)C)C(=O)N[C@@H](CC(C)C)C(=O)N[C@@H](CO)C(=O)N[C@@H](CCCCN)C(=O)N[C@@H](C)C(=O)N[C@@H](CCC(N)=O)C(=O)N[C@@H](CCC(=O)O)C(=O)N[C@@H](CCCCN)C(=O)N[C@@H](Cc1ccccc1)C(=O)NCC(=O)N[C@@H](CCCCN)C(=O)N[C@@H](CC(N)=O)C(=O)N[C@@H](CCCCN)C(=O)N[C@@H](CO)C(=O)N[C@@H](CCCCN)C(=O)O`, for which, in the test on Bacillus cereus (BM629), the “MBC against B. cereus” value is 25 µM (≈ 59 µg/mL). The “MBC against Y. enterocolitica” value in test [1] was found to be 6.3 µM (≈ 14.9 µg/mL). Further, in test [2], the “MBC against S. typhimurium SF1399” value worked out at 25 µM (≈ 59 µg/mL). In addition, the “MBC against S. typhimurium DT104a” value in test [3] stood at 12.5 µM (≈ 29.5 µg/mL).

On to `CC[C@H](C)[C@H](NC(=O)[C@H](CC(C)C)NC(=O)[C@@H](N)CC(=O)O)C(=O)N[C@@H](Cc1c[nH]c2ccccc12)C(=O)N[C@@H](CCCCN)C(=O)N[C@@H](CC(C)C)C(=O)N[C@@H](CC(C)C)C(=O)N[C@@H](CO)C(=O)N[C@@H](CCCCN)C(=O)N[C@@H](C)C(=O)N[C@@H](CCC(N)=O)C(=O)N[C@@H](CCC(=O)O)C(=O)N[C@@H](CCCCN)C(=O)N[C@@H](Cc1ccccc1)C(=O)NCC(=O)N[C@@H](CCCCN)C(=O)N[C@@H](CC(N)=O)C(=O)N[C@@H](CCCCN)C(=O)N[C@@H](CO)C(=O)N[C@@H](CCCNC(=N)N)C(=O)O`, for which, in the test on Bacillus cereus (BM629), the “MBC against B. cereus” value came to 25 µM (≈ 59.7 µg/mL). Besides, the “MBC against Y. enterocolitica” value in test [1] amounted to 6.3 µM (≈ 15.1 µg/mL). In [2], the “MBC against S. typhimurium SF1399” value stood at 12.5 µM (≈ 29.9 µg/mL). For the same compound, in test [3], the “MBC against S. typhimurium DT104a” value is 6.3 µM (≈ 15.1 µg/mL).

`CC[C@H](C)[C@H](NC(=O)[C@H](CC(C)C)NC(=O)[C@@H](N)CC(=O)O)C(=O)N[C@@H](Cc1c[nH]c2ccccc12)C(=O)N[C@@H](CCCNC(=N)N)C(=O)N[C@@H](CC(C)C)C(=O)N[C@@H](CC(C)C)C(=O)N[C@@H](CO)C(=O)N[C@@H](CCCNC(=N)N)C(=O)N[C@@H](C)C(=O)N[C@@H](CCC(N)=O)C(=O)N[C@@H](CCC(=O)O)C(=O)N[C@@H](CCCNC(=N)N)C(=O)N[C@@H](Cc1ccccc1)C(=O)NCC(=O)N[C@@H](CCCCN)C(=O)N[C@@H](CC(N)=O)C(=O)N[C@@H](CCCNC(=N)N)C(=O)N[C@@H](CO)C(=O)N[C@@H](CCCNC(=N)N)C(=O)O`: the “MBC against B. cereus” value against Bacillus cereus (BM629) was determined as 12.5 µM (≈ 31.3 µg/mL). In addition, the “MBC against Y. enterocolitica” value in test [1] is 3.1 µM (≈ 7.76 µg/mL). Also, in [2], the “MBC against S. typhimurium SF1399” value stood at 3.1 µM (≈ 7.76 µg/mL). Also, the “MBC against S. typhimurium DT104a” value in [3] amounted to 1.6 µM (≈ 4 µg/mL).

As to `CC(C)(O/N=C(\C(=O)N[C@@H]1C(=O)N2C(C(=O)[O-])=C(C[n+]3ccccc3)CS[C@H]12)c1csc(N)n1)C(=O)O`, in test [4] (overgrowth in 24 h), the “Effect on B. pseudomallei strains, in words” value was “only inhibited”.

Take `CC[C@H](C)[C@H](NC(=O)[C@H](CC(C)C)NC(=O)[C@@H](N)CC(=O)O)C(=O)N[C@@H](Cc1c[nH]c2ccccc12)C(=O)N[C@@H](CCCCN)C(=O)N[C@@H](CC(C)C)C(=O)N[C@@H](CC(C)C)C(=O)N[C@@H](CO)C(=O)N[C@@H](CCCCN)C(=O)N[C@@H](C)C(=O)N[C@@H](CCC(N)=O)C(=O)N[C@@H](CCC(=O)O)C(=O)N[C@@H](CCCCN)C(=O)N[C@@H](Cc1ccccc1)C(=O)NCC(=O)N[C@@H](CCCCN)C(=O)N[C@@H](CC(N)=O)C(=O)N[C@@H](CCCCN)C(=O)N[C@@H](CO)C(=O)N[C@@H](CCCNC(=N)N)C(=O)NCCCC[C@H](NC(=O)CNC(=O)[C@H](CC(C)C)NC(=O)[C@H](CCCCN)NC(=O)[C@H](CCCCN)NC(=O)[C@H](CCSC)NC(=O)[C@H](CCCNC(=N)N)NC(=O)[C@H](Cc1c[nH]c2ccccc12)NC(=O)[C@H](CCC(N)=O)NC(=O)[C@H](Cc1c[nH]c2ccccc12)NC(=O)[C@H](CCCNC(=N)N)NC(=O)[C@H](CCCNC(=N)N)NC(=O)[C@H](CS)NC(=O)[C@H](CCCCN)NC(=O)[C@@H](N)Cc1ccccc1)C(N)=O`: the “DiSC3(5) fluorescence (membrane depolarization), in words” value in the test on Y. enterocolitica [5] and in the test with B. cereus [6] was “relative high DiSC3(5) fluorescence” throughout. In addition, the “DiSC3(5) fluorescence compared to the control” value in the test on Y. pseudotuberculosis [7] worked out at 180%. In addition, the “Increase in DiSC3(5) fluorescence” value in the test on S. typhimurium DT104a [8] and with S. typhimurium SF1399 [9] was “approximately 25%” each time. Moreover, the “PI fluorescence (membrane permeabilization), in words” value in the test with Y. enterocolitica [10] was “strongest increase”; with B. cereus [11], “comparable to LFampin265–284”; with Y. pseudotuberculosis [12], “strongest increase”; in the test on S. typhimurium DT104a [13] it was “strongest increase”; in the test with S. typhimurium SF1399 [14], “strongest increase”. Besides, the “Concentration killing all B. pseudomallei isolates” value in [4] (within 2 h, all isolates including CAZ-resistant 979b) is 5 to 10 µM.
